Measured values from several laboratories, pooled; numbers as filed in NIAID ChemDB.

All rows: tests on isolated targets; species: HIV-1; protein: Reverse transcriptase; read by: nucleotide incorporation / radiometric; read-out: fold resistance

Fold resistance has wild type as its base. Two numbers with a dash give a range or band. An empty or dashed field is not shown. Conditions beyond the fields shown may differ between rows.

compound	changes	strain	value
CCN1c2ncc(CCOc3ccc(CC(C)C(=O)O)c4ccccc34)cc2C(=O)N(C)c2ccc(F)nc21	RT-V106A	-	>10
O=C(O)CCNC(=O)c1ccc(NC(=O)CSc2nnc(Br)n2-c2ccc(C3CC3)c3ccccc23)c(Cl)c1	RT-Y188L	-	>2
CCN1c2ncc(CCOc3ccc4c(c3)CNC(=O)N4C)cc2C(=O)N(C)c2cccnc21	RT-K103N Y181C	IIIB	>2
CCN1c2ncc(CCOc3ccc(CCC(=O)O)c4ccccc34)cc2C(=O)Nc2c(C)cc(F)nc21	RT-Y188L	-	>10
Cc1ccc(-n2c(SCC(=O)Nc3ccc(C(=O)O)cc3Cl)nnc2C(F)F)c2c1CCCC2	RT-Y188L	-	>2
Cc1ccc(-n2c(SCC(=O)Nc3ccc(S(=O)(=O)NCCC(=O)O)cc3Cl)nnc2C(F)F)c2c1CCCC2	RT-Y188L	-	>2
CCN1c2ncc(CCOc3cccc4c3CCNC4=O)cc2C(=O)N(C)c2cccnc21	RT-K103N Y181C	IIIB	>1
CCN1c2ncc(CCOc3ccc(-c4ccc(CC(=O)O)cc4OC)cc3C)cc2C(=O)N(C)c2cccnc21	RT-K103N Y181C	IIIB	1
CCOC(=O)C(C)NS(=O)(=O)c1ccc(NC(=O)CSc2nnc(C(F)F)n2-c2ccc(C)c3c2CCCC3)c(Cl)c1	RT-Y181C	-	>2
CCOC(=O)[C@H](Cc1ccc(O)cc1)NC(=O)c1ccc(NC(=O)CSc2nnc(Br)n2-c2ccc(C3CC3)c3ccccc23)c(Cl)c1	RT-Y181C	-	<1
CCN1c2ncc(CCOc3ccc(-c4ccncc4)cc3)cc2C(=O)N(C)c2cccnc21	RT-K103N Y181C	IIIB	>1
CCN1c2ncc(CCOc3ccc(C(=O)O)c4ccccc34)cc2C(=O)N(C)c2ccc(F)nc21	RT-Y188L	-	>10
O=C(CSc1nnc(Br)n1-c1ccc(C2CCC2)c2ccccc12)Nc1ccc(C(=O)O)cc1Cl	RT-Y188L	-	>2
NC(=O)c1[nH]c2ccc(Cl)cc2c1S(=O)(=O)c1ccccc1	RT-Y188L	-	1000
CCN1c2ncc(CCOc3ccc(Nc4cccc(CC(=O)O)c4)cc3C)cc2C(=O)N(C)c2cccnc21	RT-K103N Y181C	IIIB	1
CCc1ccc(-n2c(Br)nnc2SCC(=O)Nc2ccc(C(=O)N[C@H](C(=O)OC)C(C)C)cc2Cl)c2ccccc12	RT-Y188L	-	<1
CCN1c2ncc(CCOc3ccc(/C=C(\C)C(=O)O)c4ccccc34)cc2C(=O)N(C)c2ccc(Cl)nc21	RT-K103N Y181C	-	1–10
Cc1cc(S(N)(=O)=O)ccc1NC(=O)CSc1nnc(Br)n1-c1ccc(C2CCC2)c2ccccc12	RT-Y188L	-	>2
CCN1c2ncc(CCOc3cccc4c3COC(=O)N4)cc2C(=O)Nc2c(C)ccnc21	RT-K103N Y181C	IIIB	>2
CCN1c2ncc(CCOc3cccc4c3ccc[n+]4[O-])cc2C(=O)N(C)c2ccc(Cl)nc21	RT-K103N L100I	-	4.4
CCc1ccc(-n2c(Br)nnc2SCC(=O)Nc2ccc(C(=O)NCCN(C)C)cc2Cl)c2ccccc12	RT-Y188L	-	>2
CCN1c2ncc(CCOc3ccc(NC(=O)NCC(=O)O)cc3C)cc2C(=O)N(C)c2cccnc21	RT-K103N Y181C	IIIB	>2
Cc1cc(S(N)(=O)=O)ccc1NC(=O)CSc1nnc(Br)n1-c1ccc(F)c2ccccc12	RT-Y181C	-	>2
C=C1c2cc(CCOc3ccc(NS(C)(=O)=O)c4ccccc34)cnc2N(CC)c2ncccc2N1C	RT-K103N Y181C	-	1–10
O=C(CSc1nnc(Br)n1-c1c(Cl)cc(C2CCC2)c2ccccc12)Nc1ccc(C(=O)O)cc1Cl	RT-Y188L	-	>1
CCNC(=O)c1ccc(NC(=O)CSc2nnc(Br)n2-c2ccc(CC)c3ccccc23)c(Cl)c1	RT-Y188L	-	>2
CCN1c2ncc(CCOc3ccc(Nc4ccc(C(=O)O)cc4)cc3C)cc2C(=O)N(C)c2cccnc21	RT-K103N Y181C	IIIB	1
O=C(CSc1nnc(Br)n1-c1ccc(C2CC2)cc1C(F)(F)F)Nc1ccc(C(=O)O)cc1Cl	RT-Y181C	-	>1
CCN1c2ncc(CCOc3cccc4c3COC(=O)N4CC(=O)O)cc2C(=O)N(C)c2cccnc21	RT-K103N Y181C	IIIB	>1
CCc1ccc(-n2c(Br)nnc2SCC(=O)Nc2ccc(C(=O)O)cc2C)c2ccccc12	RT-Y181C	-	>1
CCN1c2ncc(CCOc3ccc(-c4ncccn4)cc3)cc2C(=O)N(C)c2cccnc21	RT-K103N Y181C	IIIB	>2
CCc1ccc(-n2c(Br)nnc2SCC(=O)Nc2ccc(C(=O)NCC3CCCCC3)cc2Cl)c2ccccc12	RT-Y188L	-	>2
CCN1c2ncc(CCOc3ccc(-c4cc(C(=O)O)ccc4OC)cc3C)cc2C(=O)N(C)c2cccnc21	RT-K103N Y181C	IIIB	>2
NS(=O)(=O)c1ccc(NC(=O)CSc2nncn2-c2ccc(C3CC3)c3ccccc23)c(Cl)c1	RT-Y188L	-	>2
CCN1c2ncc(CCOc3ccc(NC(=O)c4ccccc4C(=O)O)cc3C)cc2C(=O)N(C)c2cccnc21	RT-K103N Y181C	IIIB	>2
Cc1cc(C)cc(S(=O)(=O)c2c(C(N)=O)[nH]c3ccc(F)c(F)c23)c1	RT-K103N	-	340.9
NS(=O)(=O)c1ccc(NC(=O)CSc2nnc(Br)n2-c2ccc(F)c3ccccc23)c(Cl)c1	RT-Y188L	-	>2

For reference, 4 entries again:

compound | changes | strain | value
Cc1cc(C)cc(S(=O)(=O)c2c(C(N)=O)[nH]c3ccc(F)c(F)c23)c1 | RT-K103N | - | 340.9
NC(=O)c1[nH]c2ccc(Cl)cc2c1S(=O)(=O)c1ccccc1 | RT-Y188L | - | 1000
Cc1ccc(-n2c(SCC(=O)Nc3ccc(C(=O)O)cc3Cl)nnc2C(F)F)c2c1CCCC2 | RT-Y188L | - | >2
CCOC(=O)[C@H](Cc1ccc(O)cc1)NC(=O)c1ccc(NC(=O)CSc2nnc(Br)n2-c2ccc(C3CC3)c3ccccc23)c(Cl)c1 | RT-Y181C | - | <1